A mixed list of measured activities; the numbers were collected in NIAID ChemDB.

Common to all: growth or infection tests; agent: HIV-1; cells: ATH8; endpoint: inhibition

Inhibition is in % at the dose shown (toxicity tests: loss of growth or viability).

smiles | strain or isolate | read by | tested at | result
Nc1nc2c(ncn2[C@H]2CC[C@@H](CO)O2)c(=O)[nH]1 | IIIB | cytopathic effect / trypan blue | 100 µM | 99%
Nc1nc(N)c2ncn([C@@H]3C[C@H](CO)[C@H]3CO)c2n1 | IIIB | cytopathic effect / trypan blue | 100 µM | 46%
NC(=O)c1ncn([C@@H]2O[C@H](CO)[C@@H](O)[C@H]2O)n1 |  | cytopathic effect | 2.5 µM | 0%
Nc1ccn([C@@H]2C[C@H](CO)[C@H]2CO)c(=O)n1 | IIIB | cytopathic effect / trypan blue | 100 µM | 10%
NC(=O)c1ncn([C@@H]2O[C@H](CO)[C@@H](O)[C@H]2O)n1 | LAV Laboratory strain | cytopathic effect | 100 µg/mL | 0%
Nc1nc2c(ncn2[C@H]2CC[C@@H](CO)O2)c(=O)[nH]1 | IIIB | cytopathic effect / trypan blue | 100 µM | 100%
CSC[C@H](NC(=O)COc1cccc2cnccc12)C(=O)N[C@@H](Cc1ccccc1)[C@H](O)C(=O)N1CSC(C)(C)[C@H]1C(=O)NC(C)(C)C | RF | trypan blue | 0.3 µM | 90%
Nc1ccn(C=C=CCO)c(=O)n1 | IIIB | cytopathic effect / trypan blue | 0.2 µM | 68%
Cc1cc(-c2ccc(N=Nc3ccc4c(S(=O)(=O)O)cc(S(=O)(=O)O)c(N)c4c3O)c(C)c2)ccc1N=Nc1ccc2c(S(=O)(=O)O)cc(S(=O)(=O)O)c(N)c2c1O | LAV Laboratory strain | cytopathic effect | 100 µg/mL | 100%
O=c1ccn([C@@H]2C[C@H](CO)[C@H]2CO)c(=O)[nH]1 | IIIB | cytopathic effect / trypan blue | 500 µM | 5%
Nc1nc(Br)c2ncn([C@H]3CC[C@@H](CO)O3)c2n1 | IIIB | cytopathic effect / trypan blue | 20 µM | 100%
Nc1nc2c(ncn2[C@@H]2C[C@H](CO)[C@H]2CO)c(=O)[nH]1 | IIIB | cytopathic effect / trypan blue | 10 µM | 90%
Nc1nc(N)c2ncn([C@H]3CC[C@@H](CO)O3)c2n1 | IIIB | cytopathic effect / trypan blue | 20 µM | 90%
Nc1ncnc2c1ncn2CC#CCO | IIIB | cytopathic effect / trypan blue | 100 µM | 15%
O=C(O)P(=O)(O)O | LAV Laboratory strain | cytopathic effect | 100 µg/mL | 87%
Nc1ncnc2c1ncn2C=C=CCCl | IIIB | cytopathic effect / trypan blue | 100 µM | 0%
O=c1[nH]cnc2c1ncn2[C@@H]1C[C@H](CO)[C@H]1CO | IIIB | cytopathic effect / trypan blue | 500 µM | 4%
Nc1ccn(CC#CCO)c(=O)n1 | IIIB | cytopathic effect / trypan blue | 100 µM | 8%
Cc1cn([C@H]2C[C@H](N=[N+]=[N-])[C@@H](CO)O2)c(=O)[nH]c1=O | IIIB | cytopathic effect / trypan blue | 10 µM | 100%
OC[C@@H]1CC[C@H](n2cnc3c(I)ncnc32)O1 | IIIB | cytopathic effect / trypan blue | 20 µM | 41%

Conditions beyond the fields shown may differ between rows. Blank or dashed fields: not listed here.